According to patent US20260216325A1, “NOVEL IMIDAZOPYRIMIDINE COMPOUND AND USES THEREOF” (The Children's Medical Center Corporation, priority 2023, published 2026):

Tested on: C57BL/6 adult mice
Type: in vivo
Settings: 100 nmoles/mouse IM with spike, single immunization, 28 days post-immunization

Cc1cnc2nc(-c3ccc(C)c(NC(=O)c4ccc(CN)cc4C(F)(F)F)c3)cn2c1 [Compound (1), 4-(Aminomethyl)-N-(2-methyl-5-(6-methylimidazo[1,2-a]pyrimidin-2-yl)phenyl)-2-(trifluoromethyl) benzamide]
drove enhancement: WT spike-specific IgG1 titers | WT spike-specific IgG2c titers | WT spike-specific IgG titers
